Reference: PMC12749166, “Fragment-based drug design of a bacterial kinase inhibitor capable of increasing the antibiotic sensitivity of clinical isolates” (Communications Chemistry, 2025)

Chains of the proteins cited; added tags and fusions are not shown. Residues count along the entry.
UniProt O68183, 1-301: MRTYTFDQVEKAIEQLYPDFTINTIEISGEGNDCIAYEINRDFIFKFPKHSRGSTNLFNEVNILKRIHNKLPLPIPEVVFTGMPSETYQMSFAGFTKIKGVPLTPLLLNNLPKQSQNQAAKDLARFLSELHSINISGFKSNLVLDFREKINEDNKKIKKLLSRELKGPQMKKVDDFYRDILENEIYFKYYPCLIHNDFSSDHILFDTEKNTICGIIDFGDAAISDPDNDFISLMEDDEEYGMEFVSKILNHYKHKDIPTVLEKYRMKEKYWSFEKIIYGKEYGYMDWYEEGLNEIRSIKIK

Legend:
APH(2”)-IVa [1] = biological target: T1, APH(2”)-IVa (Enterococcus casseliflavus, UniProt O68183); experiment: Coupled enzyme system activity assay (inhibition % and Ki); conditions: read-out: Ki (µM), inhibition constant; ATP-competitive; 0-2 mM MgATP, 100 µM kanamycin A, global fitting
APH(2”)-IVa [2] = biological target: T1, APH(2”)-IVa; conditions: compound at 500 µM, protein at 5 µM

Row | Structure (SMILES) | Ki (APH(2”)-IVa [1]) [µM] | ΔTm (°C) (APH(2”)-IVa [2])
1 | Clc1cnc2[nH]ccc2c1-c1ccn[nH]1 [Compound 83] | 0.388 | 
2 | Nc1ccc(Cl)cn1 [Compound F69] |  | 1.25
